Laboratory results: PubChem BioAssay AID504761 (Drosophila RNAi Screening Center, 2011)
The deposit covers about 22,000 reagents; shown is a random part of those with a known target gene and a result. Of all reagents, 116 (0.52%) got an active call. 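Calls depend on retest data that are not deposited; infection was ranked per plate without normalising between plates; the unit of the infection score is not given.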 Raw values are not corrected between plates. Entries without a mark were called inactive. A plus sign joins genes that one reagent is predicted to hit. Reagent sequences are not shown. Not given: the amount of reagent, the time to read-out.

Aim: 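Fly genes whose silencing reduces dengue virus type 2 infection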 (primary screen)
Cells: D.Mel-2 cells from Drosophila
Knock-down reagent: long dsRNA against Drosophila genes
Conditions: infection with dengue virus type 2; dose and infection time not stated
Measured: 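Per well on two replicate plates, imaging gave the percent of cells positive for viral envelope protein, ranked by infection, and a nuclear count of cells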
Reading the numbers: infection score: higher = more virus-infected cells; cell count: higher = more cells in the well
Rule for the call: 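Low infection ranks in the two replicates (chance level up to 0.065) followed by a retest with a 1.5-fold or larger significant decrease, p below 0.05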
Calls: active = confirmed: knock-down lowers infection; inactive = not picked or not confirmed

no.	target	PubChem SID	infection score, replicate 1	infection score, replicate 2	cell count, replicate 1	cell count, replicate 2
1	CG10822	SID104185797	3.96	1.39	6068	5892
2	CG1792	SID104195082	8.47		6515	297
3	CG1792	SID104207289	14.8	6.91	5599	4719
4	Nep6	SID104199669	6.8	4.98	6116	6064
5	ATP8B	SID104194753	3.18	4.66	6917	6739
6	CG12910	SID104186017	6.69	5.15	6365	5961
7	wek	SID104183353	15.5	13.7	5932	5865
8	Pgant7	SID104199783	11.8	3.78	6136	6395
9	Inx3	SID104194649	5.25	9.31	5887	6715
10	Inx3	SID104203003	4.36	9.73	6406	6893
11	NSD	SID104195483	11.8	9.49	5445	1812
12	tHMG1	SID104195973	19.9	2.44	2726	862
13	Secp43	SID104180246	1.58	16.4	6138	6499
14	Secp43	SID104205955	6.08	4.09	6430	5845
15	bb8	SID104195370	4.52	8.65	6017	6679
16	Hml	SID104190975	2.31	0.91	5248	6591
17	CG15282	SID104202447	0.97	2.79	6083	6820
18	CG15282	SID104207777	15.9	12.3	3889	3859
19	dbo	SID104191131	1.83	2.62	5914	6221
20	wal	SID104187509	32.1	9.28	4132	6005
21	wal	SID104204874	6.05	3.61	6283	6257
22	Aven	SID104199485	2.48	3.51	6620	6676
23	CG8929	SID104187090	9.82	19.6	5113	3500
24	CG8929	SID104202206	2.94	6.05	6215	6494
25	CG44005	SID104214110	1.39	13.5	5775	6359
26	CG44005	SID104214111	0.91	9.38	5698	6724
27	CG10560	SID104194048		13.7	414	5488
28	Moe	SID104198476	2.53	0.83	6490	6621
29	Arp1	SID104193910	2.55	2.22	6151	5856
30	Arp1	SID104204708	8.57	1.91	5785	5700
31	CG17712	SID104180058	0.9	4.61	6235	5488
32	CG5565	SID104180482	3.63	1.17	6275	6898
33	rg	SID104197518	1.16	5.15	6036	6530
34	rg	SID104197841	2.82	1.2	6415	6654
35	rg	SID104207688	11	1.23	3494	567
36	nw	SID104186541	18.5	6.13	6228	4357
37	nw	SID104186688	12.4	31.9	2103	1275
38	nw	SID104204163	3.36	8.32	6273	4412
39	CG11030	SID104181912	2.04	4.39	5347	6081
40	CG11030	SID104202853	1.81	5.63	5529	5830
41	scpr-A + scpr-C + scpr-B	SID104195507	1.32	17.1	6680	5542
42	S-Lap2	SID104190420	1.97	3.94	6660	6449
43	Faf2	SID104183117	13.8	10.9	5636	5801
44	miple2	SID104188515	2.01	1.51	5914	5881
45	Sec20	SID104192087	2.69	6.31	5906	6513
46	Sec20	SID104208430	17.7	7.46	6259	6290
47	tutl	SID104180233	1.28	17	6243	6516
48	tutl	SID104180234	1.7	5.53	6526	6649
49	tutl	SID104180235	1.12	2.29	6615	6301
50	tutl	SID104206149	9.25	8.06	6872	6696
51	CG12811	SID104194341	3.34	19.3	6010	6051
52	SmydA-9	SID104197606	5.26	5.87	6278	6945
53	Rrp1	SID104180576	3.38	2.33	6364	6788
54	Rrp1	SID104205119	5.01	2.09	5546	5642
55	mam	SID104185260	8.04	3.49	6034	5507
56	mam	SID104202328	1.71	2.46	6495	6592
57	mam	SID104204312	1.15	0.33	6776	6412
58	Ir87a	SID104194628	5.66	20.1	6868	3271
59	Ir87a	SID104206193	11.1	5.38	6614	6972
60	Claspin	SID104188100	8.07	1.81	6244	6408
61	CG18764	SID104195183	4.36	7.1	6337	6482
62	Ice1	SID104183983	2.21	4.51	6512	6587
63	Ice1	SID104202808	27.1	29.6	5656	6138
64	CG18808	SID104188331	12.9	0.72	6264	6400
65	CG10035	SID104193969	2.56	11.4	6635	5860
66	CG10035	SID104207207	2.89		553	369
67	hd	SID104192108	13.2	5.31	6571	6646
68	hd	SID104204846	22.6	10.5	5552	5695
69	CR32745	SID104197234	2.48	6	6400	6113
70	CR32745	SID104208233	34.2	15.5	3935	6173
71	Cpr78Ca	SID104191443	7.35	9.25	6735	6530
72	car	SID104200108	19.5	31.6	4264	5897
73	car	SID104204774	8.07	2.13	5925	6044
74	CG3706	SID104198441	4.79	9.38	1503	3081

Reformatted: entries from further up
target	PubChem SID	infection score, replicate 1	infection score, replicate 2	cell count, replicate 1	cell count, replicate 2
wek	SID104183353	15.5	13.7	5932	5865
Pgant7	SID104199783	11.8	3.78	6136	6395
Inx3	SID104194649	5.25	9.31	5887	6715
Inx3	SID104203003	4.36	9.73	6406	6893
